Biological target: T1, human H4 receptor (Homo sapiens, UniProt Q9H3N8)
T1 construct: expressed in transfected cells
Assay: Binding Assay on Recombinant Human Histamine H4 Receptor
Settings: Table 2; [3H] histamine competition binding, membranes of SK-N-MC cells transfected with human H4 receptor; average of results

Protein sequences, listed by entry. Tags and fused reporters are not part of them. Lines headed by an entry give the natural chain unless they say otherwise; changes in a name come on top.
UniProt Q9H3N8: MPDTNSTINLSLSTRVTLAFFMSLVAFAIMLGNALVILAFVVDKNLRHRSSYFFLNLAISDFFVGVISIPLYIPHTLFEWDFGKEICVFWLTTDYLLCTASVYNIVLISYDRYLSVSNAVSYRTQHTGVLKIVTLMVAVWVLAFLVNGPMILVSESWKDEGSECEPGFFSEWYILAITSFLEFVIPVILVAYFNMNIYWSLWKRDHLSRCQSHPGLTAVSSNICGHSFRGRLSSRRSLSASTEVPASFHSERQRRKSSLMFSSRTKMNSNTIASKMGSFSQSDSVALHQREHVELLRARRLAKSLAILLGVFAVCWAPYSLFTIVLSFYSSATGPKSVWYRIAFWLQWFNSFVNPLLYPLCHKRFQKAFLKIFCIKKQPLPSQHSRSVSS

In the case of `CN[C@H]1CCN(c2cc(C(C)(C)C)nc(N)n2)C1` [Example 130, (S)-4-tert-Butyl-6-(3-methylamino-pyrrolidin-1-yl)-pyrimidin-2-ylamine], the Ki is reported as 8 nM.

Source: patent US8716475B2, “2-aminopyrimidine modulators of the histamine H4 receptor” (Janssen Pharmaceutica NV, priority 2007, dated 2014)
